Experimental findings from patent US20220363736A1 (ICAHN SCHOOL OF MEDICINE AT MOUNT SINAI, published 2022) are described below.

The labels stand for the following.
B1: monoclonal antibody 1F4 (hybridoma-produced, murine IgG2a) (antibody, V domains shown)
VH: QVHLQQSGSELRSPGSSVKLSCKDFDSEVFPIVYMRWIRQKPGHGFEWIGDILPSFGRTIYGEKFEDKATLDADTVSNTAYLELNSLTSEDSAIYYCARGDHGNWLAYWGQGTLVTVSA
VL: DIVMTQSHKFMSTSVGDRVTITCKASQDVSTNVAWYQQKPGQSPKLLIYWASTRHTGVPNRFTGIISGTDYTLTISSVQAEDRALYYCQQHYSAPWTFGGGTKLEIK
B2: monoclonal antibody 3G1 (hybridoma-produced, murine IgG2a) (antibody, V domains shown)
VH: QVQLQQSGAELMKPGASVKISCKATGYKFTSYWIGWVKQRPGHGLEWCGEIFPGSGSINYNEKFKGKATFTADTSSNTAYLQLTSLTSEDSAVYYCARGEDYYGSSYGAMDYWGQGTSLTVSS
VL: DVQITQSPSYLAASPGETITINCRASKSISKYVAWYQEKPGRTNKVLIYSGSILSFGNPSRFSGSGSGTDFTLTISSLEPEDFAMYYCQQHNEYPWTFGGGTKLEIK
B3: monoclonal antibody 4F11 (hybridoma-produced, murine IgG2b) (antibody, V domains shown)
VH: DVKLVESGGDLVKPGGSLKLSCAASGFTFSAYSMSWVRQTPERRLEWVATINTGGSFTYYPDSVKGRFTISRDNAKNTLYLQMSSLKSEDTAMYFCTRVSDYGNSAYFPYWGQGTLVIVFA
VL: QVVLTQSPALISASPGEKVTMTCSASSNVNYMSWYQQRPRSSPKPWIYLTSKLASGVPPRFSGSGSGTSYSLTISSMEAEDVATYYCQQWSSDPQTFGGGTKVEIK
B4: monoclonal antibody 4B2 (hybridoma-produced, murine IgG2a) (antibody, V domains shown)
VH: QIQLVQSGPELKKPGETVKISCKASGFTFTDYPMHWVKQAPGKSLKWMGWINTETEEPTYSDDFKGRSPLSLETSASTTYLQINNLKNEDTSTYFCVRSGYYYGSTYAWFGYWGQGTLVTVSA
VL: DVVMTQIPLSLPVSLGDQASISCRSSQSLIHTNGDTFLHWYLQKPGQSPKLLIYKVSNRFSGVPDRFTGGGSGTDFTLKISRVEAEDLGIYFCSQSALFPYTFGGGTNLEIK

For this assay, the target named is recombinant neuraminidase (rNA) from B/Malaysia/2506/04 (influenza B virus B/Malaysia/2506/04). Briefly: biolayer interferometry (Octet Red96), […].
In the case of B1, the Kd was 0.819 nM and the koff was 4.25e-05 s⁻¹.

With B2, the Kd stood at 0.532 nM and the koff is 0.000255 s⁻¹.

B3: the Kd is 0.152 nM and the koff came out at 3.76e-05 s⁻¹.

Take B4: the Kd was 1.75 nM and the koff was determined as 0.000364 s⁻¹.
